One substance from PMC5971065 (ACS infectious diseases, 2017) can be followed below.

The test system of this data set is A549, HEK-293, and J774A.1 cells.

For kanamycin A, the cytotoxicity result was “not toxic”.
